Measured data: PubChem BioAssay AID624099 (ICCB-Longwood, 2012)
This is an unselected part of about 21,000 reagents tested. 497 of all reagents (2.4%) count as active. 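Higher z means weaker E2 silencing; only reporter increases were scored, and knock-downs that hurt cell survival may mask genuine repressor factors.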

Purpose: 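Host factors E2 relies on to silence an HPV18 LCR reporter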 (primary screen)
Cell system: human C33A cervical carcinoma cells (HPV-negative) stably expressing BPV1 E2 and an HPV18 LCR luciferase reporter
Reagent: siRNA pool against human genes, 40 nM
Duration: 72 h
Measured: 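Per-well luciferase luminescence, z-scored on each plate against the plate mean and SD with control wells left out, then averaged across three replicate plates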
Reading the numbers: mean z-score and z-score: higher = stronger reporter signal, weaker E2 silencing
Call rule: 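Mean z ≥ 2 together with z ≥ 2 in two or more of the three replicates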

gene,mean z-score,"z-score, replicate A","z-score, replicate B","z-score, replicate C",Outcome
PCMTD1,-1.33,-1.07,-1.39,-1.54,inactive
FMNL2 (formin like 2),-1,-0.69,-1.24,-1.08,inactive
MCMBP (minichromosome maintenance complex binding protein),1.44,1.99,1.36,0.98,inactive
PNLDC1 (PARN like ribonuclease domain containing exonuclease 1),0.42,0.07,0.52,0.66,inactive
NFASC (neurofascin),1.06,1.18,0.93,1.09,inactive
"ERCC1 (ERCC excision repair 1, endonuclease non-catalytic subunit)",0.73,0.75,0.57,0.86,inactive
LRRC59 (leucine rich repeat containing 59),-0.41,-0.67,-0.25,-0.31,inactive
LDB2 (LIM domain binding 2),-1.28,-1.32,-1.22,-1.29,inactive
ASPG (asparaginase),-0.26,-0.44,-0.15,-0.19,inactive
HLA-DPB2,4.41,4.11,4.52,4.61,active
HRNR (hornerin),-1.91,-1.51,-2.1,-2.11,inactive
LOC387705 (retired record),0.06,-0.23,0.13,0.26,inactive
SMIM19 (small integral membrane protein 19),-0.74,-0.93,-0.72,-0.57,inactive
GPR155 (G protein-coupled receptor 155),-0.85,-0.65,-0.91,-1,inactive
LOC285658 (retired record),-4.61,-4.79,-4.52,-4.51,inactive
HACE1,1.06,0.92,1.27,0.99,inactive
GALNTL5 (polypeptide N-acetylgalactosaminyltransferase like 5),-0.91,-1.21,-0.6,-0.9,inactive
R3HCC1 (R3H domain and coiled-coil containing 1),1.06,0.75,1.1,1.34,inactive
LOC388277 (retired record),0.22,0.11,0.14,0.42,inactive
KIF20A (kinesin family member 20A),0.17,0.17,0.3,0.02,inactive
ARHGAP35 (Rho GTPase activating protein 35),-0.15,-0.28,0.03,-0.21,inactive
LRRC36 (leucine rich repeat containing 36),-0.56,-0.6,-0.53,-0.55,inactive
CASP5 (caspase 5),0.46,0.83,0.18,0.36,inactive
FSAF1 (40S small subunit processome assembly factor 1),-1.81,-1.54,-2.08,-1.8,inactive
LOC401270 (retired record),0.61,0.31,0.88,0.64,inactive
MARCHF11-DT (MARCHF11 divergent transcript),-1.48,-1.56,-1.76,-1.12,inactive
NRROS (negative regulator of reactive oxygen species),0.95,0.62,1.7,0.51,inactive
FMNL1 (formin like 1),-1.17,-1.03,-1.42,-1.08,inactive
OAF (out at first homolog),-0.58,-0.85,-0.24,-0.63,inactive
ETV5 (ETS variant transcription factor 5),-0.88,-0.84,-0.87,-0.94,inactive
ONECUT3 (one cut homeobox 3),-1.65,-1.81,-1.28,-1.85,inactive
FEZ1 (fasciculation and elongation protein zeta 1),-0.5,-0.46,-0.24,-0.79,inactive
ADHFE1 (alcohol dehydrogenase iron containing 1),-0.99,-1.16,-0.8,-1.01,inactive
RMDN2 (regulator of microtubule dynamics 2),-0.19,0.02,-0.6,0.02,inactive
PLEKHN1 (pleckstrin homology domain containing N1),-1.13,-0.99,-1.39,-1,inactive
LOC388338 (retired record),0.05,-0.14,0.38,-0.1,inactive
ESAM (endothelial cell adhesion molecule),-0.51,-0.5,-0.95,-0.09,inactive
"TOB1 (transducer of ERBB2, 1)",0.86,0.72,1,0.85,inactive
C10orf95 (chromosome 10 open reading frame 95),-3,-2.82,-3.4,-2.78,inactive
ASCC2 (activating signal cointegrator 1 complex subunit 2),1.59,1.62,1.91,1.23,inactive
CAV3 (caveolin 3),-0.64,-0.55,-0.79,-0.59,inactive
TNKS2 (tankyrase 2),0.83,0.66,1.15,0.69,inactive
BCAM (basal cell adhesion molecule (Lutheran blood group)),-0.78,-0.67,-0.86,-0.8,inactive
NRGN (neurogranin),0.65,0.88,0.48,0.6,inactive
LALBA (lactalbumin alpha),-0.42,-0.24,-0.27,-0.75,inactive
VEGFD (vascular endothelial growth factor D),1.39,1.23,1.6,1.33,inactive
RPL10 (ribosomal protein L10),-3.74,-3.85,-3.71,-3.67,inactive
PRSS33 (serine protease 33),-0.04,-0.23,0.06,0.03,inactive
LOC284120 (retired record),0.43,0.15,0.44,0.69,inactive
"TLE3 (TLE family member 3, transcriptional corepressor)",1.14,0.55,1.52,1.35,inactive
STAMBPL1 (STAM binding protein like 1),-1.1,-0.69,-1.26,-1.36,inactive
MIR663AHG (MIR663A host gene),-0.9,-0.9,-0.92,-0.87,inactive
LOC400682 (zinc finger protein 100-like),1.07,1.01,1.24,0.95,inactive
CAMSAP1 (calmodulin regulated spectrin associated protein 1),0.76,1.03,0.87,0.39,inactive
LIN7A (lin-7 cell polarity scaffold A),1.53,1.9,1.1,1.59,inactive
"RAB9A (RAB9A, member RAS oncogene family)",0.03,-0.35,0.1,0.33,inactive
SLC16A14,0.21,0.09,-0.13,0.68,inactive

Called active, of those listed so far:
gene,mean z-score,"z-score, replicate A","z-score, replicate B","z-score, replicate C",Outcome
HLA-DPB2,4.41,4.11,4.52,4.61,active
